Pooled drug test results. Numbers come from NIAID ChemDB, via PubChem.

Shared fields: growth or infection tests; species: Mycobacterium tuberculosis

MIC50, MIC90 and the like: level of inhibition, or share of isolates inhibited. MIC bound: limit read from a one-dose screen. ECn: concentration that inhibits the pathogen or its effect by n%. Rows are shuffled and stem from different studies. Blank or dashed fields: not listed here. Percent inhibition refers to the dose given; in toxicity tests it is the harm to the cells.

SMILES,cell line,conditions,read by,strain or isolate,dose,measure,mutations,result
COc1ccc2c(c1)CCC1=C2C=C[P+]1(C)C,,,resazurin,H37Rv,,MIC bound,,>6.25 µg/mL
COc1ccc(/C=N/N=c2\scc(-c3cc4cc(Br)ccc4oc3=O)n2Cc2ccccc2)cc1,,,,H37Rv,6.25 µg/mL,inhibition,,<11%
Cn1c(O)c(/C=C2/C=Nc3ccccc32)n(C)c1=N,,,BACTEC,H37Rv,12.5 µg/mL,inhibition,,36%
CN[C@@H]1[C@H](O[C@H]2[C@H](O[C@H]3[C@H](O)[C@@H](O)[C@H](N=C(N)N)[C@@H](O)[C@@H]3N=C(N)N)O[C@@H](C)[C@]2(O)C=O)O[C@@H](CO)[C@H](O)[C@H]1O,,,,9449/2007,,MIC,,>27.5 µM
CCOC(=O)N1CCN(c2ccc3c(-c4ccccc4)cc(OC)nc3n2)CC1,,,,H37Rv,12.5 µg/mL,inhibition,,77%
COc1ccccc1CSc1ncccn1,,,,H37Rv,6.25 µg/mL,inhibition,,6%
CCOC(C)=Nc1cc(OC)cc2c1NC(=O)CCS2,,,BACTEC,H37Rv,12.5 µg/mL,inhibition,,0%
COc1nc2ccc(Br)cc2cc1[C@@H](c1ccccc1)[C@@](O)(CCN(C)C)c1cccc2ccccc12,,,broth dilution,,,MIC80,,0.2 µM
O=c1oc2ccc(Br)cc2cc1-c1cs/c(=N\N=C\c2ccc(Br)cc2)n1Cc1ccccc1,,,,H37Rv,6.25 µg/mL,inhibition,,<11%
Cc1ccc(C(=O)Nc2ccc(Cl)c(Cl)c2)c(O)c1,,,,CNCTC MY331/88,,MIC,,8 µM
CN(C)c1ccc2nc3ccc(=[N+](C)C)c([N+](=O)[O-])c-3sc2c1,,,BACTEC,H37Rv,12.5 µg/mL,inhibition,,-13%
COc1cccc(Sc2ccncc2)c1,,,,H37Rv,,MIC90,,>6.25 µg/mL
CN(C)c1ccc(NC(=O)c2cc([N+](=O)[O-])ccc2O)cc1,,,,CNCTC MY331/88,,MIC,,31 µM
Cc1ccc(CSc2ccncc2)cc1,,,,H37Rv,,MIC90,,>6.25 µg/mL
CC[C@H](/C=C/[C@@H](C)[C@H]1CC[C@H]2[C@@H]3CC=C4C[C@@H](O)CC[C@]4(C)[C@H]3CC[C@]12C)C(C)C,,,,H37Rv,,MIC,,64 µg/mL
Cc1cccc(C)c1Sc1nc(Cl)nc2nc[nH]c12,,,,H37Rv,6.25 µg/mL,inhibition,,1%
CO[C@H]1/C=C/O[C@@]2(C)Oc3c(C)c(O)c4c(O)c(c(/C=N/N5CCN(C)CC5)c(O)c4c3C2=O)NC(=O)/C(C)=C\C=C\[C@H](C)[C@H](O)[C@@H](C)[C@@H](O)[C@@H](C)[C@H](OC(C)=O)[C@@H]1C,,,turbidity,H37Rv,,MIC90,,1 µM
O=c1ccc2c(-c3ccccc3)cc(N(CCO)CCO)nc2[nH]1,,,,H37Rv,12.5 µg/mL,inhibition,,1%
Cc1cc(-c2cc3c(cc2F)c(=O)c(C(=O)O)cn3C2CC2)cc(C)n1,,,,483-8,,MIC,,2 µg/mL
CCCCCCCCCCCCCCCCCCCCCC[C@@H](O)C(=O)N[C@@H](CO)[C@H](O)[C@H](O)CCCCCCCCCCCCCC,,,,H37Rv,,MIC,,128.2 µg/mL
COC(=O)C1C(OC(C)=O)C(C)C(O)C(C)(O)/C=C(\C)C2=C3C(=C(C)C(=O)c4c(O)c(c(C)c(OC(C)=O)c43)NC(=O)/C(C)=C/C=C\[C@](C)(O)C(O)[C@@H](C)C1O)OCO2,,,BACTEC,H37Rv,12.5 µg/mL,inhibition,,99%
CC1(C)CC(N=c2cc3n(-c4ccc(Cl)cc4Cl)c4ccccc4nc-3cc2Nc2ccc(Cl)cc2Cl)CC(C)(C)N1,Macrophages,inside macrophages,,H37Rv,,EC50,,<0.005 µg/mL
O=c1oc2ccccc2cc1-c1cs/c(=N\N=C\c2ccc(Cl)c(Cl)c2)n1Cc1ccccc1,,,,H37Rv,,MIC,,>6.25 µg/mL
S=C(NCCNC(=S)[S][Sn]([c]1ccccc1)([c]1ccccc1)[c]1ccccc1)[S][Sn]([c]1ccccc1)([c]1ccccc1)[c]1ccccc1,,,,KM-R,,MIC,,0.4 µg/mL
O=c1ccc2c(-c3ccccc3)cc(N3CCNCC3)nc2[nH]1,,,,H37Rv,,EC50,,>12.5 µg/mL
CC[C@H]1OC(=O)[C@H](C)[C@@H](O[C@H]2C[C@@](C)(OC)[C@@H](O)[C@H](C)O2)[C@H](C)[C@@H](O[C@@H]2O[C@H](C)C[C@H](N(C)C)[C@H]2O)[C@](C)(OC)C[C@@H](C)C(=O)[C@H](C)[C@@H](O)[C@]1(C)O,,,,Isolate 2219,,MIC,,>4 µg/mL
CSc1ncc(SC)c(Nc2ccc(C)c(Cl)c2)n1,,,BACTEC,H37Rv,12.5 µg/mL,inhibition,,97%
CO[C@H]1/C=C/O[C@@]2(C)Oc3c(C)c(O)c4c(O)c(c(/C=N/N5CCN(C)CC5)c(O)c4c3C2=O)NC(=O)/C(C)=C\C=C\[C@H](C)[C@H](O)[C@@H](C)[C@@H](O)[C@@H](C)[C@H](OC(C)=O)[C@@H]1C,,,broth dilution,19000,,MIC80,Rifampicin-resistant,>1.2 µM
C/C=C/C1=C(Cl)C(=O)[C@H](Cl)[C@]1(O)C(=O)OC,,,BACTEC,H37Rv,12.8 µg/mL,inhibition,,34%
O=C(c1cn(-c2cccc3ccccc23)nn1)c1ccc(Cl)cc1Cl,,,,H37Rv,,MIC,,>12.5 µg/mL
O=c1oc2ccc(Br)cc2cc1-c1cs/c(=N\N=C\c2cc([N+](=O)[O-])ccc2O)n1Cc1ccccc1,,,,H37Rv,,MIC,,>6.25 µg/mL
OC(CC1CCCCN1)c1ccc2c(c1)oc1ccccc12,,,BACTEC,H37Rv,12.5 µg/mL,inhibition,,43%
Cc1ccc(/C=N/N=c2\scc(-c3cc4cc(Br)ccc4oc3=O)n2Cc2ccccc2)cc1,,,,H37Rv,6.25 µg/mL,inhibition,,<11%
c1ccc(-c2cc(N3CCNCC3)nc3nc(N4CCNCC4)ccc23)cc1,,,,H37Rv,12.5 µg/mL,inhibition,,10%
O=C1C2=C(Nc3cc([N+](=O)[O-])ccc3N2)OC1c1ccccc1Cl,,,BACTEC,H37Rv,12.5 µg/mL,inhibition,,-19%
CO[C@H]1/C=C/O[C@@]2(C)Oc3c(C)c(O)c4c(O)c(c5c(c4c3C2=O)NC2(CCN(CC(C)C)CC2)N=5)=NC(=O)/C(C)=C\C=C\[C@H](C)[C@H](O)[C@@H](C)[C@@H](O)[C@@H](C)[C@H](OC(C)=O)[C@@H]1C,,,,Strain 5 (RIF-resistant),,MIC,,10 µg/mL
Cc1c(CN2CCN(C)CC2)c(CN2CCN(C)CC2)c(C)n1-c1ccc(Cl)cc1,,,BACTEC,H37Rv,,MIC bound,,>6.25 µg/mL
CC(C)C[C@@H]1NC(=O)[C@H](Cc2c[nH]c3ccccc23)NC(=O)[C@@H](CCCN)NC(=O)[C@H](CC(N)=O)NC(=O)[C@H](C(C)C)NC(=O)[C@@H](CC(C)C)NC1=O,,,turbidity,H37Rv,,MIC90,,2.97 µM
CCOC(=O)N1CCN(c2cc(-c3ccccc3)c3cccnc3n2)CC1,,,,H37Rv,,EC50,,>12.5 µg/mL
O=C(c1ccccc1)c1cn(-c2ccc(Cl)cc2)nn1,,,,H37Rv,,MIC,,>12.5 µg/mL
CC(C)C[C@@H]1NC(=O)[C@H](Cc2c[nH]c3ccccc23)NC(=O)[C@@H](CCCCN)NC(=O)[C@H](CC(N)=O)NC(=O)[C@H](C(C)C)NC(=O)[C@@H](CC(C)C)NC1=O,,,turbidity,CDC1551,,EC50,,0.47 µM
O=C(c1cn(-c2cccc3ccccc23)nn1)c1cccs1,,,,H37Rv,,MIC,,>12.5 µg/mL
COc1cc(/C=N/NC(=O)CC(C)O)ccc1O,,,BACTEC,H37Rv,12.5 µg/mL,inhibition,,2%
O=c1oc2ccc(Br)cc2cc1-c1cs/c(=N\N=C\c2ccc(Cl)cc2)n1Cc1ccccc1,,,,H37Rv,,MIC,,>6.25 µg/mL
COC(=O)C1(C)CCCC2(C)C1CCC1(O)C(O)C(C(C)C)=CCC21,,,BACTEC,H37Rv,12.5 µg/mL,inhibition,,0%
COCCc1c(C(=O)OC)[n+](=O)c2cc(Cl)c(Cl)cc2n1[O-],,inside macrophages,,H37Rv,,EC90,,>1.56 µg/mL
Cc1cccc(/C=N/NC(=S)N(C)C)n1.[Cl][Cu][Cl],,,,TF274,,MIC90,,0.78 µM
Cc1ccc(O)c(C(=O)Nc2ccc(C#N)cc2)c1,,,,CNCTC MY331/88,,MIC,,1000 µM
Clc1ccccc1Sc1ncnc2nc[nH]c12,,,,H37Rv,6.25 µg/mL,inhibition,,0%
COc1ccc2c(c1)n([O-])c1ccccc1[n+]2=O,,,,PZA-R,,MIC,,0.8 µg/mL
Cc1ccc(Cn2nnc(-c3cc([N+](=O)[O-])cc([N+](=O)[O-])c3)n2)cc1,,14 d,,Praha 131,,MIC,,0.125 µM
O=c1oc2ccc(Br)cc2cc1-c1cs/c(=N\N=C\c2ccc(F)cc2)n1Cc1ccccc1,,,,H37Rv,6.25 µg/mL,inhibition,,<11%
CC[C@H]1OC(=O)[C@H](C)[C@@H](O[C@H]2C[C@@](C)(OC)[C@@H](O)[C@H](C)O2)[C@H](C)[C@@H](O[C@@H]2O[C@H](C)C[C@H](N(C)C)[C@H]2O)[C@](C)(OC)C[C@@H](C)C(=O)[C@H](C)[C@@H](O)[C@]1(C)O,,,,91196,,MIC,,>4 µg/mL
CCc1nc2ccc(Cl)cn2c1C(=O)NCc1ccc(N2CCC(c3ccc(OC(F)(F)F)cc3)CC2)cc1,,,turbidity,H37Rv,,MIC50,,0.0015 µM
COC(=O)c1c(COC(=O)NC(C)C)c2n(c1C)CS(=O)(=O)C2,,,resazurin,H37Rv,,MIC bound,,>6.25 µg/mL
O=c1cc(-c2ccccc2)c2ccc(N3CCNCC3)nc2[nH]1,,,,H37Rv,,EC50,,>12.5 µg/mL
NNC(=O)c1ccncc1,,,broth dilution,35820,,MIC80,Streptomycin-resistant,0.2 µM
CCN(CC)C(=O)c1cc2c(=O)c3c(ccc4ccccc43)oc2n(C)c1=O,,,BACTEC,H37Rv,,MIC bound,,>12.5 µg/mL
CN[C@@H]1[C@H](O[C@H]2[C@H](O[C@H]3[C@H](O)[C@@H](O)[C@H](N=C(N)N)[C@@H](O)[C@@H]3N=C(N)N)O[C@@H](C)[C@]2(O)C=O)O[C@@H](CO)[C@H](O)[C@H]1O,,,,29197,,MIC,,<2 µg/mL
CC1(C)CC(N=c2cc3n(-c4cc(Cl)cc(Cl)c4)c4ccccc4nc-3cc2Nc2cc(Cl)cc(Cl)c2)CC(C)(C)N1,Macrophages,inside macrophages,,H37Rv,0.005 µg/mL,inhibition,,95%
CN(C)c1ccc(-c2nc3c(=O)n(C)c(=O)n(C)c3nc2-c2ccc(N(C)C)cc2)cc1,,,BACTEC,H37Rv,12.5 µg/mL,inhibition,,35%
CC[C@H](CC[C@@H](C)[C@H]1CC[C@H]2[C@@H]3CC=C4C[C@@H](O[C@@H]5O[C@H](CO)[C@@H](O)[C@H](O)[C@H]5O)CC[C@]4(C)[C@H]3CC[C@]12C)C(C)C,,,,H37Rv,,MIC,,>128 µg/mL
CC1=NC(C)(COC(=O)C2(C)NC(C)(CO)CO2)COC1=O,,,BACTEC,H37Rv,,MIC bound,,>12.5 µg/mL
CC(C)C[C@@H]1NC(=O)[C@H](Cc2c[nH]c3ccccc23)NC(=O)[C@@H](CCCN=C(N)N)NC(=O)[C@H](CC(N)=O)NC(=O)[C@H](C(C)C)NC(=O)[C@@H](CC(C)C)NC1=O,,,turbidity,HN353,,EC50,,0.59 µM
O=C(N/N=C/c1ccc(/C=N/NC(=O)c2cccnc2)cc1)c1cccnc1,,,BACTEC,H37Rv,,MIC,,≥12.5 µg/mL
O=c1oc2ccccc2cc1-c1cs/c(=N\N=C\c2ccc(F)cc2)n1Cc1ccccc1,,,,H37Rv,6.25 µg/mL,inhibition,,<11%
O=C(c1cn[nH]n1)c1ccc(Cl)cc1Cl,,,,H37Rv,12.5 µg/mL,inhibition,,0%
CCOC(=O)N1CCN(c2cc(-c3ccccc3)c3ccc(Cl)nc3n2)CC1,,,,H37Rv,,EC50,,<12.5 µg/mL
CC[C@H](CC[C@@H](C)[C@H]1CC[C@H]2[C@@H]3CC=C4C[C@@H](O)CC[C@]4(C)[C@H]3CC[C@]12C)C(C)C,,,,H37Rv,,MIC,,32.8 µg/mL
COc1ccc2c(-c3ccccc3)cc(N3CCNCC3)nc2n1,,,,H37Rv,12.5 µg/mL,inhibition,,67%
Cc1ccc(C(=O)Nc2cccc([N+](=O)[O-])c2)c(O)c1,,,,CNCTC MY331/88,,MIC,,8 µM
Cc1ccc(NC(=S)N(C)C)cc1Cl,,,BACTEC,H37Rv,,MIC bound,,>12.5 µg/mL
CC(C)C[C@@H]1NC(=O)[C@H](Cc2c[nH]c3ccccc23)NC(=O)[C@H](CCCCN)NC(=O)[C@H](CC(N)=O)NC(=O)[C@H](C(C)C)NC(=O)[C@@H](CC(C)C)NC1=O,,,turbidity,HN878,,MIC90,,>30 µM